This is an account of results in patent US20240245673A1, “Papain-like protease (PLpro) inhibitors” (Pfizer Inc., priority 2022, published 2024).

Molecules are shown by their SMILES.

In this experiment the target is SARS-CoV-2 Papain like protease (PLpro) (Severe acute respiratory syndrome coronavirus 2 (2019-nCoV) (SARS-CoV-2), UniProt P0DTD1). Briefly: Papain Like Protease (PLpro) biochemical assay with profluorogenic substrate Z-RLRGG-AMC. Particulars: SARS-CoV-2 PLpro 6.25 nM, 25 μM Z-RLRGG-AMC substrate, 60 minute reaction.
In turn, `Cc1ccc(N2CCN(CCO)CC2)cc1C(=O)NC1(c2cc(-c3cnn(C)c3)nc3ccccc23)CC1` showed a half-inhibitory concentration (IC50) of 3 nM.

The molecule `Cc1cc(CC(O)Cc2ccccn2)ccc1C(=O)NC1(c2cc(-c3cnn(C)c3)nc3ccccc23)CC1` (stereo not drawn) had an IC50 of 1 nM.

The molecule `COC(Cc1ccc(C(=O)NC2(c3cc(-c4cnn(C)c4)nc4ccccc34)CC2)c(C)c1)Cc1ccccn1` (stereo not drawn) registered an IC50 of 4 nM.

As usually defined, the IC50 is the point on the concentration scale where inhibition reaches its midpoint. Low values mean inhibition by little substance, high ones a need for much substance.
